From EP0751768B1, “ANTI-VIRAL AND ANTI-CANCER AGENT” (Radopath Pharmaceuticals International Limited, priority 1994, dated 1995)
Several values for one entry are separate records, joined by “and”; a condition that tells them apart may be missing. Equal entries are not always repeated. The source's definition of the ratio is not given here.

System: HIV-I IIIB
Experiment: Acute infection assay, HIV core antigen ELISA (HIV-I IIIB)
Format: cell-based
Details: Against HIV-I IIIB; for SI (Selectivity Index), Average: average line; for SI (Selectivity Index): single determinations, ratio CC50 / IC50

Structure (SMILES) | SI (Selectivity Index), Average | SI (Selectivity Index)
O=C(O)c1cc([N+](=O)[O-])cc([N+](=O)[O-])c1Cl [C7, 2-chloro-3,5-dinitrobenzoic acid] | 8 | 
NC(=O)c1cc([N+](=O)[O-])c(Cl)c([N+](=O)[O-])c1Cl [C2] |  | 35
NC(=O)c1cc([N+](=O)[O-])c(Cl)c([N+](=O)[O-])c1 [C5] |  | 10
O=C(O)c1cc([N+](=O)[O-])c(Cl)c([N+](=O)[O-])c1 [C4, 4-chloro-3,5-dinitrobenzoic acid] | 2.4 | 2.5 and 2.3
